Laboratory results: PMC5712549

Tested on: HSF1-like HSE-binding protein, 51 kDa (anti-human HSF1 reactive) (Entamoeba histolytica (clones A[8] and C2[20]))
Experiment: UV-crosslinking + anti-HSF1 western blot
Conditions: emetine-grown trophozoites, poly[d(I-C)]; protein in an extract; label: 32P

ATAGAAATTTTTCATA (double strand) [HSE-S-16 (EhPgp5 HSE)]
binding result: binds

For at least one entry, the source does not settle the construct or the ends of the probe. Where cells or extracts were used, other partners may take part.
